Results deposited as PubChem BioAssay AID504761 (Drosophila RNAi Screening Center, 2011).

Purpose: 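Genome-wide fly cell screen for genes dengue virus requires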 (primary screen)
System: D.Mel-2 cells from Drosophila
Reagent: long dsRNA against Drosophila genes
Treatment: infection with dengue virus type 2; dose and infection time not stated
Measured: 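Per well on two replicate plates, imaging gave the percent of cells positive for viral envelope protein, ranked by infection, and a nuclear count of cells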
Direction: infection score: higher = more virus-infected cells; cell count: higher = more cells in the well
Hit rule: 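Low infection ranks in the two replicates (chance level up to 0.065) followed by a retest with a 1.5-fold or larger significant decrease, p below 0.05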
Meaning of the calls: active = confirmed: knock-down lowers infection; inactive = not picked or not confirmed
The deposit covers about 22,000 reagents; this is an unselected part of those with a known target gene and a result. Over the whole deposit, 116 (0.52%) are marked active. 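Calls depend on retest data that are not deposited; infection was ranked per plate without normalising between plates; the unit of the infection score is not given.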 Raw values vary from plate to plate and are shown uncorrected. Entries without a mark were called inactive. Reagents against one gene are numbered here. Names joined by + are all predicted targets of the reagent. The record does not give: the amount of reagent, the time to read-out.

target | reagent | infection score, replicate 1 | infection score, replicate 2 | cell count, replicate 1 | cell count, replicate 2
Vm34Ca (GeneID 34758) | 1 | 2.14 | 2.04 | 6630 | 6609
Vm34Ca (GeneID 34758) | 2 | 2.26 | 6.37 | 5713 | 5933
RpL12 (GeneID 45329) | 1 | 6.69 | – | 1660 | 382
puf (GeneID 42935) | 1 | 0.95 | 2.14 | 6076 | 514
CG33469 (GeneID 2768832) | 1 | 0.7 | 3.96 | 5745 | 6138
CG11999 (GeneID 40637) | 1 | 5.98 | 13.3 | 6971 | 5570
sra (GeneID 47384) | 1 | 11 | 2.9 | 6988 | 6338
CG5938 (GeneID 43290) | 1 | 2.06 | 5.15 | 6457 | 4931
CG5938 (GeneID 43290) | 2 | 4.24 | 2.65 | 7023 | 6425
trem (GeneID 42392) | 1 | 2.05 | 0.44 | 6588 | 6419
Polr1F (GeneID 33963) | 1 | 6.99 | 31.6 | 1088 | 4942
Polr1F (GeneID 33963) | 2 | 2.04 | 3.89 | 6262 | 6372
CG32121 (GeneID 317867) | 1 | 2.53 | 1.61 | 6484 | 5980
bur (GeneID 45830) | 1 | 10.5 | 27.6 | 6193 | 5535
CG10681 (GeneID 39425) | 1 | 12 | 9.44 | 6533 | 6517
CG10681 (GeneID 39425) | 2 | 1.03 | 1.5 | 5755 | 5816
CG10681 (GeneID 39425) | 3 | 20.8 | 12.2 | 6414 | 6287
Src42A (GeneID 35524) | 1 | 1.55 | 9.09 | 6367 | 6381
Ythdf (GeneID 42995) | 1 | 0.74 | 7.99 | 6041 | 6093
Ythdf (GeneID 42995) | 2 | 0.84 | 2.07 | 6275 | 5905
alphaTub84D (GeneID 40904) | 1 | 7.13 | 10.3 | 1262 | 926
alphaTub84D (GeneID 40904) | 2 | 3.49 | 4.34 | 6188 | 6215
Fitm (GeneID 38596) | 1 | 5.57 | 6.8 | 6443 | 6542
Fitm (GeneID 38596) | 2 | – | 0.63 | – | 634
CG9106 (GeneID 32454) | 1 | 7.34 | 1.15 | 6719 | 6062
CG9106 (GeneID 32454) | 2 | 3.11 | 4.55 | 6406 | 6266
Mst36Fa (GeneID 318948) | 1 | 1.88 | 8.23 | 5846 | 6114
Mst36Fa (GeneID 318948) | 2 | 3.78 | 8.21 | 6596 | 6301
Mnr (GeneID 33098) | 1 | 3.18 | 1.26 | 6202 | 5939
Mnr (GeneID 33098) | 2 | 4.53 | 4.86 | 6473 | 6548
Mnr (GeneID 33098) | 3 | 3.31 | 2.36 | 5679 | 6686
Ppt1 (GeneID 31805) | 1 | 8.45 | 2.98 | 5808 | 6338
CG2150 (GeneID 43745) | 1 | 14.6 | 8.79 | 6270 | 6142
Prx6c + CG12896 + Prx6b | 1 | 7.09 | 17.6 | 6434 | 5941
Prx6c + CG12896 + Prx6b | 2 | 28.8 | 32 | 5969 | 4365
Pdp (GeneID 31683) | 1 | 3.32 | 0.45 | 6678 | 220
Pdp (GeneID 31683) | 2 | 3.6 | 7.43 | 6390 | 6557
CG14107 (GeneID 39498) | 1 | 2.16 | 0.72 | 5454 | 6117
CG14107 (GeneID 39498) | 2 | 6.07 | 5.52 | 6826 | 6988
CG4230 (GeneID 33743) | 1 | 4.38 | 3.16 | 6283 | 6584
Hayan (GeneID 32831) | 1 | 1.56 | 3.91 | 7066 | 6727
Hayan (GeneID 32831) | 2 | 4.01 | 0.75 | 7128 | 7484
Hayan (GeneID 32831) | 3 | 0.9 | 1.87 | 6095 | 6374
CG1983 (GeneID 43588) | 1 | 21.5 | – | 5411 | 267
CG13694 (GeneID 33169) | 1 | 7 | 26.4 | 6619 | 6299
EndoB (GeneID 37218) | 1 | 3.49 | 4.66 | 5868 | 6731
CCT6 (GeneID 32518) | 1 | 5.92 | 3.03 | 4832 | 4456
HGTX (GeneID 53446) | 1 | 5.29 | 1.48 | 6181 | 5756
HGTX (GeneID 53446) | 2 | 1.77 | 3.02 | 6117 | 6461
CG3679 (GeneID 32591) | 1 | 11 | 4.28 | 6508 | 6358
CG3679 (GeneID 32591) | 2 | 2.03 | 12.5 | 6220 | 5777
GluRIIA (GeneID 33788) | 1 | 3.15 | 6.56 | 6248 | 6735
CG14803 (GeneID 31142) | 1 | – | 3.54 | 386 | 594
Dolk (GeneID 36856) | 1 | 13.3 | 4.55 | 6165 | 6622
CG12025 (GeneID 38246) | 1 | 1.82 | 4.25 | 6372 | 6420
CG14257 (GeneID 43257) | 1 | 12.4 | 3.41 | 5482 | 6536
CG14257 (GeneID 43257) | 2 | 30.8 | 33.1 | 5636 | 6394
Sec61alpha (GeneID 33905) | 1 | 0.39 | 3.57 | 6189 | 2861

Part of the list above, reformatted:
{"target": "Hayan (GeneID 32831)", "reagent": 2, "infection score, replicate 1": 4.01, "infection score, replicate 2": 0.75, "cell count, replicate 1": 7128, "cell count, replicate 2": 7484}
{"target": "Hayan (GeneID 32831)", "reagent": 3, "infection score, replicate 1": 0.9, "infection score, replicate 2": 1.87, "cell count, replicate 1": 6095, "cell count, replicate 2": 6374}
{"target": "CG1983 (GeneID 43588)", "reagent": 1, "infection score, replicate 1": 21.5, "cell count, replicate 1": 5411, "cell count, replicate 2": 267}
{"target": "CG13694 (GeneID 33169)", "reagent": 1, "infection score, replicate 1": 7, "infection score, replicate 2": 26.4, "cell count, replicate 1": 6619, "cell count, replicate 2": 6299}
{"target": "EndoB (GeneID 37218)", "reagent": 1, "infection score, replicate 1": 3.49, "infection score, replicate 2": 4.66, "cell count, replicate 1": 5868, "cell count, replicate 2": 6731}
{"target": "CCT6 (GeneID 32518)", "reagent": 1, "infection score, replicate 1": 5.92, "infection score, replicate 2": 3.03, "cell count, replicate 1": 4832, "cell count, replicate 2": 4456}
{"target": "HGTX (GeneID 53446)", "reagent": 1, "infection score, replicate 1": 5.29, "infection score, replicate 2": 1.48, "cell count, replicate 1": 6181, "cell count, replicate 2": 5756}
{"target": "HGTX (GeneID 53446)", "reagent": 2, "infection score, replicate 1": 1.77, "infection score, replicate 2": 3.02, "cell count, replicate 1": 6117, "cell count, replicate 2": 6461}
{"target": "CG3679 (GeneID 32591)", "reagent": 1, "infection score, replicate 1": 11, "infection score, replicate 2": 4.28, "cell count, replicate 1": 6508, "cell count, replicate 2": 6358}
{"target": "CG3679 (GeneID 32591)", "reagent": 2, "infection score, replicate 1": 2.03, "infection score, replicate 2": 12.5, "cell count, replicate 1": 6220, "cell count, replicate 2": 5777}
